A mixed list of measured activities; the numbers were collected in NIAID ChemDB.

All rows: tests on isolated targets; organism: Toxoplasma gondii

Percent inhibition refers to the dose given; in toxicity tests it is the harm to the cells.

structure | target | strain or isolate | dose | endpoint | value
Nc1nc(N)c2nc(CNc3cccc4ccccc34)cnc2n1 | DHFR | RH | - | IC50 | 0.076 µM
COC(=O)c1cc(=O)[nH]c(=O)[nH]1 | Uracil phosphoribosyltransferase | RH | - | IC50 | >2000 µM
Nc1nc(N)c2c(n1)Cc1ccccc1-2 | Dihydrofolate reductase | - | - | IC50 | 1.8 µM
C1CCC([NH2+]C2CCCCC2)CC1.C1CCC([NH2+]C2CCCCC2)CC1.O=C(O)/C(=N\Nc1ccc([N+](=O)[O-])cc1[N+](=O)[O-])P(=O)([O-])[O-] | Pyrophosphate-dependent phosphofructokinase | - | - | IC50 | 350 µM
Cc1nc(NS(=O)(=O)c2ccc(N)cc2)ncc1Br | DHPS | - | - | IC50 | 2100 µM
Nc1nc(N)c2c(n1)CCCc1ccc(Cl)cc1-2 | Dihydrofolate reductase | - | - | IC50 | 0.018 µM
COC(=O)c1nc[nH]c1CO | Phosphoribosyltransferase | RH | - | IC50 | >900 µM
Nc1ccc(S(=O)(=O)Nc2ccc(C(=O)O)cc2)cc1 | DHPS | - | - | IC50 | >670 µM
CCc1nc(N)nc(N)c1-c1ccc(Cl)c(Cl)c1 | Dihydrofolate reductase | - | - | IC50 | 0.094 µM
Cc1ncnc2nc[nH]c12 | Phosphoribosyltransferase | RH | 900 µM | inhibition | <10%
CC1(C)N=C(N)N=C(N)N1c1ccc(Cl)cc1Cl | DHFR | RH | - | IC50 | 56 µM
CSc1nncc2[nH]cnc12 | Phosphoribosyltransferase | RH | 900 µM | inhibition | <10%
Cc1nc(NS(=O)(=O)c2ccc(N)cc2)nc(C)c1Br | DHPS | - | - | IC50 | 230 µM
CCOP(=O)(OCC)C(=NNc1ccc([N+](=O)[O-])cc1[N+](=O)[O-])P(=O)(OCC)OCC | Pyrophosphate-dependent phosphofructokinase | - | - | IC50 | 75 µM
CC1(C)N=C(N)N=C(N)N1c1cccc(CC(=O)Nc2ccccc2)c1 | DHFR | RH | - | IC50 | 0.084 µM
Nc1ccc(S(=O)(=O)Nc2ccc(S(=O)(=O)O)cc2)cc1 | DHPS | - | - | IC50 | >520 µM
O=C1CCCC(=O)O1 | Uracil phosphoribosyltransferase | RH | 2000 µM | inhibition | <10%
Nc1nc(N)c2c(n1)CCc1cc(Cl)ccc1-2 | Dihydrofolate reductase | - | - | IC50 | 1.6 µM
O=P([O-])(O)C(Cl)(Cl)P(=O)([O-])c1ccccc1.c1cc[nH+]cc1 | Pyrophosphate-dependent phosphofructokinase | - | - | IC50 | >2000 µM
Nc1ccc(S(=O)(=O)Nc2cnc3c(Cl)cccc3n2)cc1 | DHPS | - | - | IC50 | 550 µM
O=c1cc(Cc2ccccc2)[nH]c(=S)[nH]1 | Uracil phosphoribosyltransferase | RH | - | IC50 | >2000 µM
c1c[nH]cn1 | Phosphoribosyltransferase | RH | - | IC50 | >900 µM
c1ncncn1 | Uracil phosphoribosyltransferase | RH | 2000 µM | inhibition | <10%
Nc1nc(N)c2c(ccc3cc(Cl)c(Cl)cc32)n1 | Dihydrofolate reductase | - | - | IC50 | 0.043 µM
CCn1cnc2c(N)ncnc21 | Phosphoribosyltransferase | RH | 900 µM | inhibition | <10%
Nc1ccc(S(=O)(=O)Nc2cc(Cl)cc(Cl)c2)cc1 | DHPS | - | - | IC50 | 28.8 µM
C1CCC([NH2+]C2CCCCC2)CC1.C1CCC([NH2+]C2CCCCC2)CC1.O=C(O)C(=O)P(=O)([O-])[O-] | Pyrophosphate-dependent phosphofructokinase | - | - | IC50 | >2000 µM
Nc1ccnc(=O)[nH]1 | Phosphoribosyltransferase | RH | - | Ki | 286 µM
CCc1c(CNc2ccc(C(=O)NC(CC(=O)O)C(=O)O)cc2)ccc2nc(N)nc(N)c12 | DHFR | RH | - | IC50 | 0.00135 µM
C1CCC([NH2+]C2CCCCC2)CC1.C1CCC([NH2+]C2CCCCC2)CC1.O=C(O)/C(=N\Nc1ccc([N+](=O)[O-])cc1)P(=O)([O-])[O-] | Pyrophosphate-dependent phosphofructokinase | - | - | IC50 | >2000 µM
CN(Cc1cnc2nc(N)nc(N)c2n1)c1c(F)cc(C(=O)N[C@H](CCC(=O)O)C(=O)O)cc1F | DHFR | RH | - | IC50 | 0.099 µM
COc1ccc2c(c1)CCN2Cc1cnc2nc(N)nc(N)c2c1C | Dihydrofolate reductase | - | - | IC50 | 0.048 µM
CC1(C)N=C(N)N=C(N)N1c1ccc(OCCOc2ccc(NC(=O)CBr)cc2)cc1 | DHFR | RH | - | IC50 | 0.011 µM
Cc1cc(NS(=O)(=O)c2ccc(N)cc2)no1 | DHPS | - | - | IC50 | 1938 µM
CN1CN(C)c2n[nH]nc2C1=O | Phosphoribosyltransferase | RH | 900 µM | inhibition | <10%
O=c1cc[nH]c(=S)[nH]1 | Uracil phosphoribosyltransferase | RH | - | Ki | 4400 µM
O=P(O)(O)CP(=O)(O)O | Pyrophosphate-dependent phosphofructokinase | - | - | IC50 | >2000 µM
S=c1[nH]ncc2[nH]cnc12 | Phosphoribosyltransferase | RH | - | Ki | 30 µM
O=C1NC(=O)C([N+](=O)[O-])C(=O)N1 | Uracil phosphoribosyltransferase | RH | - | IC50 | >2000 µM
Nc1ccc(S(=O)(=O)Nc2nc(-c3ccccc3)cs2)cc1 | DHPS | - | - | IC50 | 430 µM

A second listing of 3 rows from above:

CN(Cc1cnc2nc(N)nc(N)c2n1)c1c(F)cc(C(=O)N[C@H](CCC(=O)O)C(=O)O)cc1F ; target: DHFR ; strain or isolate: RH ; endpoint: IC50 ; value: 0.099 µM
CC1(C)N=C(N)N=C(N)N1c1ccc(Cl)cc1Cl ; target: DHFR ; strain or isolate: RH ; endpoint: IC50 ; value: 56 µM
CCn1cnc2c(N)ncnc21 ; target: Phosphoribosyltransferase ; strain or isolate: RH ; dose: 900 µM ; endpoint: inhibition ; value: <10%

Neighbouring rows are from separate reports. An empty or dashed field is not shown. ICn: concentration for n% inhibition.